Results deposited as PubChem BioAssay AID504761 (Drosophila RNAi Screening Center, 2011).
Assay: 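Insect host genes that dengue virus relies on to spread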 (primary screen). System: D.Mel-2 cells from Drosophila. Reagents: long dsRNA against Drosophila genes. Treatment: infection with dengue virus type 2; dose and infection time not stated. Measured: 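Cells stained for dengue envelope protein and imaged; percent of infected cells per well on duplicate plates, ranked by infection, with stained nuclei counted for cell number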. Reading the numbers: infection score: higher = more virus-infected cells; cell count: higher = more cells in the well. Hit rule: 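Very low infection ranking in both replicate wells (chance probability at most 0.065), then a retest showing infection dropped 1.5-fold or more at p below 0.05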. Calls: active = confirmed: knock-down lowers infection; inactive = not picked or not confirmed.
The deposit covers about 22,000 reagents; this is a random part of those that have a named target and a result. Of all reagents, 116 (0.52%) were called active. 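Calls depend on retest data that are not deposited; infection was ranked per plate without normalising between plates; the unit of the infection score is not given.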 Raw values are not corrected between plates. Names joined by + are all predicted targets of the reagent. Not stated in the record: the amount of reagent, the time to read-out.

Target gene | dsRNA | infection score, replicate 1 | infection score, replicate 2 | cell count, replicate 1 | cell count, replicate 2 | call
alpha-Man-Ib | DRSC14418 | 1.46 | 2.8 | 5684 | 6819 | inactive
alpha-Man-Ib | DRSC26131 | 9.31 | 5.56 | 6359 | 6426 | inactive
Hr39 | DRSC03346 | 5.05 | 9.09 | 6540 | 6205 | inactive
Hr39 | DRSC26006 | – | 8.21 | 581 | 6247 | inactive
CG2617 | DRSC02712 | 3.69 | 3.59 | 6832 | 6462 | inactive
CG2617 | DRSC24947 | 2.42 | 2.18 | 6313 | 6145 | inactive
HP1b | DRSC18418 | 11.7 | 28.7 | 5936 | 5815 | inactive
HP1b | DRSC29826 | 15.2 | 16.6 | 6539 | 6651 | inactive
CG3335 | DRSC10358 | 4.82 | 3.29 | 4983 | 5408 | inactive
CG3335 | DRSC29982 | 37.3 | 20 | 4749 | 5189 | inactive
CG14302 | DRSC14781 | 3.95 | 9.71 | 5776 | 5508 | inactive
Pih1D1 | DRSC02897 | 5.55 | 3.6 | 6780 | 6302 | inactive
Pih1D1 | DRSC28212 | 5.7 | 6.72 | 2651 | 1042 | inactive
CG40191 | DRSC21041 | 24.8 | 5.6 | 4963 | 6821 | inactive
CG12402 | DRSC14508 | 0.99 | 0.97 | 6448 | 6726 | inactive
CG12402 | DRSC26872 | 5.44 | 1.65 | 6340 | 6496 | inactive
CG42585 + CG31835 | DRSC28807 | 9.96 | 25.2 | 5632 | 5483 | inactive
Gr59a | DRSC21550 | 1.92 | 3.41 | 6194 | 6653 | inactive
prtp | DRSC19804 | 15.2 | 5.81 | 6524 | 6715 | inactive
prtp | DRSC22494 | 2.02 | 12.5 | 5435 | 6044 | inactive
CG32170 | DRSC09452 | 0.56 | 0.71 | 6074 | 5777 | inactive
Rab3GAP1 | DRSC00291 | 1.81 | 20.3 | 6737 | 6380 | inactive
Rab3GAP1 | DRSC00703 | 1.81 | 4.01 | 6502 | 6456 | inactive
Rab3GAP1 | DRSC28988 | 0.24 | 16.1 | 422 | 6156 | inactive
CG18371 | DRSC06733 | 14 | 8.53 | 5960 | 7019 | inactive
mRpS11 | DRSC15732 | 9.26 | 22.1 | 6727 | 6475 | inactive
CG30116 | DRSC05935 | 23.3 | 32.5 | 6391 | 5334 | inactive
CG30116 | DRSC06685 | 4.68 | 18.9 | 5750 | 5533 | inactive
PIG-Q | DRSC19138 | 3.1 | 1.38 | 6056 | 6068 | inactive
dy | DRSC20325 | 1.6 | 3.95 | 6453 | 6380 | inactive
dy | DRSC25539 | 3.51 | 3.91 | 6693 | 6606 | inactive
CG31029 | DRSC15422 | 5.61 | 4.01 | 3511 | 6765 | inactive
CG31029 | DRSC29559 | 25.2 | – | 5902 | 421 | inactive
Arpc3A | DRSC15596 | 7.31 | 9.24 | 5965 | 6377 | inactive
Arpc3A | DRSC27915 | 8.72 | 3.13 | 6694 | 6528 | inactive
prc | DRSC11385 | 1.34 | 2.56 | 6404 | 6785 | inactive
CG32801 | DRSC17964 | 3.07 | 17.6 | 1172 | 5749 | inactive
CG32801 | DRSC25614 | 6.94 | 4.37 | 5709 | 5907 | inactive
Hsc70-1 | DRSC11185 | 3.62 | 2.92 | 5721 | 5865 | inactive
Hsc70-1 | DRSC25201 | 4.86 | 2.19 | 6463 | 6489 | inactive

Only “cell count, replicate 2”, for 2 of the entries above:
CG42585 + CG31835 [DRSC28807]: 5483
Gr59a [DRSC21550]: 6653
